Data as given in PubChem BioAssay AID624099 (ICCB-Longwood, 2012).
Purpose: 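Host factors E2 relies on to silence an HPV18 LCR reporter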 (primary screen). Cell system: human C33A cervical carcinoma cells (HPV-negative) stably expressing BPV1 E2 and an HPV18 LCR luciferase reporter. Reagent: siRNA pool against human genes, 40 nM. Time to read-out: 72 h. Read-out: 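Per-well luciferase luminescence, z-scored on each plate against the plate mean and SD with control wells left out, then averaged across three replicate plates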. Reading the numbers: mean z-score and z-score: higher = stronger reporter signal, weaker E2 silencing. Active means: 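Mean z ≥ 2 together with z ≥ 2 in two or more of the three replicates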.
This is one part, drawn at random, of about 21,000 deposited reagents. 497 of all reagents (2.4%) count as active. 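Higher z means weaker E2 silencing; only reporter increases were scored, and knock-downs that hurt cell survival may mask genuine repressor factors.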

The first 6 entries as a preview:
target gene	mean z-score	z-score, replicate A	z-score, replicate B	z-score, replicate C	activity call
SLC11A2 (GeneID 4891)	-0.45	-0.43	-0.13	-0.8	inactive
NFATC2 (GeneID 4773)	0.35	0.43	0.22	0.4	inactive
TTC17 (GeneID 55761)	0.58	0.29	-0.23	1.7	inactive
MID1 (GeneID 4281)	0.66	0.66	0.41	0.93	inactive
DSCR10 (GeneID 259234)	-0.71	-0.64	-0.63	-0.85	inactive
FRMD8 (GeneID 83786)	1.31	1.4	1.53	0.99	inactive

Results, from the start:
target gene	mean z-score	z-score, replicate A	z-score, replicate B	z-score, replicate C	activity call
SLC11A2 (GeneID 4891)	-0.45	-0.43	-0.13	-0.8	inactive
NFATC2 (GeneID 4773)	0.35	0.43	0.22	0.4	inactive
TTC17 (GeneID 55761)	0.58	0.29	-0.23	1.7	inactive
MID1 (GeneID 4281)	0.66	0.66	0.41	0.93	inactive
DSCR10 (GeneID 259234)	-0.71	-0.64	-0.63	-0.85	inactive
FRMD8 (GeneID 83786)	1.31	1.4	1.53	0.99	inactive
MTRF1 (GeneID 9617)	-0.68	-0.98	-0.69	-0.37	inactive
TAS2R39 (GeneID 259285)	2.42	2.91	1.93	2.42	active
FENDRR (GeneID 400550)	0.62	0.79	0.1	0.95	inactive
BTBD10 (GeneID 84280)	0.26	0.31	0.14	0.33	inactive
ABHD17B (GeneID 51104)	0.66	0.18	0.6	1.21	inactive
USP40 (GeneID 55230)	-1.34	-1.04	-1.45	-1.51	inactive
VEGFA (GeneID 7422)	1.01	1	1.15	0.87	inactive
ZBTB24 (GeneID 9841)	1.55	1.57	1.49	1.6	inactive
COMMD4 (GeneID 54939)	-0.1	0.11	-0.22	-0.18	inactive
TMEM184B (GeneID 25829)	1.97	1.66	1.68	2.59	inactive
PUDP (GeneID 8226)	-0.59	-0.72	-0.31	-0.75	inactive
SNCB (GeneID 6620)	0.2	0.32	-0.03	0.32	inactive
S1PR5 (GeneID 53637)	-0.32	-0.1	-0.3	-0.56	inactive
GDF5 (GeneID 8200)	0.42	0.37	0.09	0.79	inactive
NLRP14 (GeneID 338323)	-0.12	0.25	-0.31	-0.32	inactive
RALGAPA1 (GeneID 253959)	2.8	2.91	2.92	2.57	active
SPIN2A (GeneID 54466)	1.88	1.88	1.82	1.96	inactive
LAX1 (GeneID 54900)	0	0.24	-0.02	-0.21	inactive
MTMR1 (GeneID 8776)	1.02	1.05	0.9	1.1	inactive
RPL23AP37 (GeneID 130773)	-1.93	-1.68	-2.29	-1.83	inactive
SCRG1 (GeneID 11341)	0.19	0.5	0.3	-0.25	inactive
DOCK1 (GeneID 1793)	0.75	0.73	0.89	0.62	inactive
ZNF318 (GeneID 24149)	1.08	0.72	1.16	1.38	inactive
LOC389801 (retired record) (GeneID 389801)	-0.17	-0.03	-0.14	-0.34	inactive
LINC01011 (GeneID 401232)	0.18	0.94	0	-0.38	inactive
RAB7A (GeneID 7879)	0.85	0.62	0.95	0.99	inactive
BLTP3B (GeneID 23074)	3.76	3.97	3.07	4.23	active
IGHV1OR21-1 (GeneID 390530)	-0.45	-0.07	-0.78	-0.49	inactive
PPP6R1 (GeneID 22870)	0.1	0.12	0.14	0.03	inactive
EVPL (GeneID 2125)	-0.57	-0.45	-0.69	-0.58	inactive
SKOR1 (GeneID 390598)	0.51	0.7	0.12	0.71	inactive
LAMB3 (GeneID 3914)	-0.94	-1.06	-0.96	-0.8	inactive
PYDC1 (GeneID 260434)	-0.55	-0.25	-0.38	-1.02	inactive
PLAGL2 (GeneID 5326)	-0.02	-0.18	-0.17	0.28	inactive
PMVK (GeneID 10654)	3.13	3.41	3.02	2.97	active
SEC14L3 (GeneID 266629)	0.41	0.37	0.45	0.42	inactive
CEP57L1 (GeneID 285753)	6.48	6.26	6.09	7.09	active
AGAP3 (GeneID 116988)	-0.2	-0.3	-0.37	0.07	inactive
PCDH20 (GeneID 64881)	0.96	0.88	1.18	0.83	inactive
SFMBT2 (GeneID 57713)	-0.9	-0.83	-0.84	-1.01	inactive
EPS15L1 (GeneID 58513)	-0.6	-0.66	-0.54	-0.58	inactive
F11R (GeneID 50848)	-0.13	-0.06	-0.05	-0.27	inactive
PARP11 (GeneID 57097)	-0.29	-0.19	-0.33	-0.35	inactive
APEH (GeneID 327)	-0.17	-0.03	-0.48	0	inactive
CAPNS2 (GeneID 84290)	-0.28	-0.19	-0.28	-0.36	inactive
TMEM209 (GeneID 84928)	0.19	-0.06	0.07	0.55	inactive
LOC389409 (retired record) (GeneID 389409)	1.37	1.45	1.11	1.56	inactive
LRP2 (GeneID 4036)	0.07	-0.16	0.31	0.06	inactive
DPP8 (GeneID 54878)	0.3	0.97	0.55	-0.62	inactive
CCBE1 (GeneID 147372)	0.13	0.3	-0.42	0.52	inactive
MSANTD1 (GeneID 345222)	-0.04	0.12	-0.18	-0.06	inactive
TMEM116 (GeneID 89894)	-0.78	-0.93	-0.51	-0.9	inactive
TMOD4 (GeneID 29765)	0.48	0.99	0.17	0.29	inactive
TIMP3 (GeneID 7078)	-0.51	-0.58	-0.59	-0.35	inactive
HEBP2 (GeneID 23593)	-0.24	-0.33	-0.5	0.1	inactive
TRERF1 (GeneID 55809)	1.27	1.33	0.99	1.49	inactive
CCDC8 (GeneID 83987)	-1.14	-0.88	-1.25	-1.28	inactive
FBXO28 (GeneID 23219)	0.21	0.04	1.08	-0.5	inactive
RORC (GeneID 6097)	0.63	0.51	0.76	0.61	inactive
CLEC12B (GeneID 387837)	0.33	0.31	0.44	0.22	inactive
LINC00486 (GeneID 285045)	0.86	0.85	1.09	0.64	inactive
RAPGEF2 (GeneID 9693)	-1.7	-1.71	-1.84	-1.53	inactive
EEF1DP1 (GeneID 126037)	-0.27	-0.46	-0.29	-0.06	inactive
HUS1B (GeneID 135458)	-1.4	-1.34	-1.34	-1.52	inactive
ELAPOR1 (GeneID 57535)	0.37	0.45	0.67	-0.01	inactive
TRIO (GeneID 7204)	-0.5	-0.45	-0.46	-0.59	inactive
COMMD2 (GeneID 51122)	-1.04	-1.05	-0.8	-1.27	inactive
